Anti-infective test results gathered from many reports (values: NIAID ChemDB through PubChem).

All rows: whole-cell or culture tests; species: Plasmodium falciparum; read-out: EC50

Lines come from different laboratories, so protocols vary.

SMILES | strain or isolate | changes | cells | read by | result
O=c1c2ccccc2ncn1CCCC1NCC[C@@H]1O | K1 |  | Human A+ erythrocytes | LDH / absorbance | >1 µg/mL
O=C(CN1C(=O)SC(=Cc2cc(C(F)(F)F)ccc2C(F)(F)F)C1=O)N1CCN(c2ccccc2)CC1 | W2 | Chloroquine-resistant |  | fluorescence | >10 µM
CCc1cccc(OCCCCN(C)Cc2ccccc2)c1 | 3D7 |  | Erythrocytes | flow cytometry | >16.8 µM
O=C(CN1C(=O)SC(=Cc2ccccc2)C1=O)N1CCN(c2ccccc2)CC1 | W2 | Chloroquine-resistant |  | fluorescence | >10 µM
CC(NCC(O)COc1ccccc1C(C)(C)C)c1ccccc1 | 3D7 |  | Erythrocytes | flow cytometry | 3.1 µM
COc1cccc(CN2C(=O)SC(=Cc3c(OC)cc(OC)cc3OC)C2=O)c1 | W2 | Chloroquine-resistant |  | fluorescence | >10 µM
O=c1c2ccccc2ncn1CCCC1NCCCC[C@@H]1O | FCR3 |  | Human A+ erythrocytes | LDH / absorbance | 0.545 µg/mL
CCCCN(CCCC)CC(O)COc1ccc2ccccc2c1 | K1 |  | Erythrocytes | flow cytometry | 0.7575 µM
CCN(CC)CCCC(C)Nc1ccnc2cc(Cl)ccc12 | W2 |  | human red blood cells | broth dilution / radiometric | 0.528 µM
c1ccc2cc(OCCCCCN3CCCCC3)ccc2c1 | K1 |  | Erythrocytes | flow cytometry | 2.41 µM
O=C(CC1NCCC[C@@H]1O)Cn1cnc(-c2ccccc2)cc1=O | K1 |  | Human A+ erythrocytes | LDH / absorbance | 0.138 µg/mL
CCN(CC)CCOc1ccccc1C(=O)CCc1ccccc1 | K1 |  | Erythrocytes | flow cytometry | 1.01 µM
CCCCCCc1ncn(CC(=O)CC2NCCC[C@@H]2O)c(=O)c1CCCCCC | K1 |  | Human A+ erythrocytes | LDH / absorbance | >1 µg/mL
O=C(CN1C(=O)SC(=Cc2ccc(C(F)(F)F)cc2)C1=O)N1CCN(c2ccccc2)CC1 | W2 | Chloroquine-resistant |  | fluorescence | >10 µM
O=c1c2ccccc2ncn1CC1(O)CC2NCCCC[C@@H]2O1 | K1 |  | Human A+ erythrocytes | LDH / absorbance | 0.187 µg/mL
CCCCN(CCCC)CC(O)COc1cccc2ccccc12 | K1 |  | Erythrocytes | flow cytometry | 0.1457 µM
C[C@@H]1CC[C@H]2[C@@H](C)C(=O)O[C@@H]3OC4(C)CC[C@@H]1[C@]32OO4 | W2 |  | human red blood cells | broth dilution / radiometric | 0.0133 µM
CCN(CC)CCCC(C)Nc1ccnc2cc(Cl)ccc12 | FCR3 |  | Erythrocyte | LDH | 0.015 µg/mL
O=C(CC1NCCC[C@@H]1O)Cn1cnc2ccccc2c1=O | FCR3 |  | Human A+ erythrocytes | LDH / absorbance | 0.00142 µg/mL

The last 2 rows once more:

SMILES,strain or isolate,changes,cells,read by,result
CCN(CC)CCCC(C)Nc1ccnc2cc(Cl)ccc12,FCR3,,Erythrocyte,LDH,0.015 µg/mL
O=C(CC1NCCC[C@@H]1O)Cn1cnc2ccccc2c1=O,FCR3,,Human A+ erythrocytes,LDH / absorbance,0.00142 µg/mL

An empty or dashed field is not shown. ECn: concentration that inhibits the pathogen or its effect by n%.